Test results reported in US9617302B2 (priority 2011, dated 2017).
This is a selection: effects in other tests are not listed, and their absence says nothing.

The chains behind the UniProt entries cited, without tags or fusion partners. Residues count along the entry.
UniProt P07359, 17-652 limits assumed: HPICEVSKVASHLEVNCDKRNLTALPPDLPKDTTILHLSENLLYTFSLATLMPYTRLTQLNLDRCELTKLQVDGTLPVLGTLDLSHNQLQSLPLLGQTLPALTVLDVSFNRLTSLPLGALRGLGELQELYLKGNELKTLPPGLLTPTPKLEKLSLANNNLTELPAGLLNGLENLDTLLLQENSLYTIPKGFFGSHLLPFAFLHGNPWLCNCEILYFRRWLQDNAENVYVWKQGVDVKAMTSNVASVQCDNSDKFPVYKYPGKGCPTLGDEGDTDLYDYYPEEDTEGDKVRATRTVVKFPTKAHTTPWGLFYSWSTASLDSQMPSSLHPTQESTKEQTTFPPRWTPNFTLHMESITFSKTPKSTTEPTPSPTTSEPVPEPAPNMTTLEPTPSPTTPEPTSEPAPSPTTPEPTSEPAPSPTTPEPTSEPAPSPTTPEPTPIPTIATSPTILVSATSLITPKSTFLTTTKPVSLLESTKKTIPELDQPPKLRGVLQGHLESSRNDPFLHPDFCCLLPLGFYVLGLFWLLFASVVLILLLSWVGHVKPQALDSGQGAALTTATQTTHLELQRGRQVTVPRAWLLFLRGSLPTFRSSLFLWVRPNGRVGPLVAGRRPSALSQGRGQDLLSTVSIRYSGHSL
UniProt Q9HCN6, 21-339 limits assumed: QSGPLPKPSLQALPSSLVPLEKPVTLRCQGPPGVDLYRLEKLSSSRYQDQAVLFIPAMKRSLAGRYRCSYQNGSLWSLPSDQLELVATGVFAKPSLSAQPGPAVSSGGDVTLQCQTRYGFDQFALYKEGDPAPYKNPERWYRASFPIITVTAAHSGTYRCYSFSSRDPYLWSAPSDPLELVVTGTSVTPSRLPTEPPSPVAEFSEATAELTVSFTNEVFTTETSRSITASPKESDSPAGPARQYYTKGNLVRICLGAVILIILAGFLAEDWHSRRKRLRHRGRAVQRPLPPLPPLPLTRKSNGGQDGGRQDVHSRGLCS
UniProt P05556, 21-798 limits assumed: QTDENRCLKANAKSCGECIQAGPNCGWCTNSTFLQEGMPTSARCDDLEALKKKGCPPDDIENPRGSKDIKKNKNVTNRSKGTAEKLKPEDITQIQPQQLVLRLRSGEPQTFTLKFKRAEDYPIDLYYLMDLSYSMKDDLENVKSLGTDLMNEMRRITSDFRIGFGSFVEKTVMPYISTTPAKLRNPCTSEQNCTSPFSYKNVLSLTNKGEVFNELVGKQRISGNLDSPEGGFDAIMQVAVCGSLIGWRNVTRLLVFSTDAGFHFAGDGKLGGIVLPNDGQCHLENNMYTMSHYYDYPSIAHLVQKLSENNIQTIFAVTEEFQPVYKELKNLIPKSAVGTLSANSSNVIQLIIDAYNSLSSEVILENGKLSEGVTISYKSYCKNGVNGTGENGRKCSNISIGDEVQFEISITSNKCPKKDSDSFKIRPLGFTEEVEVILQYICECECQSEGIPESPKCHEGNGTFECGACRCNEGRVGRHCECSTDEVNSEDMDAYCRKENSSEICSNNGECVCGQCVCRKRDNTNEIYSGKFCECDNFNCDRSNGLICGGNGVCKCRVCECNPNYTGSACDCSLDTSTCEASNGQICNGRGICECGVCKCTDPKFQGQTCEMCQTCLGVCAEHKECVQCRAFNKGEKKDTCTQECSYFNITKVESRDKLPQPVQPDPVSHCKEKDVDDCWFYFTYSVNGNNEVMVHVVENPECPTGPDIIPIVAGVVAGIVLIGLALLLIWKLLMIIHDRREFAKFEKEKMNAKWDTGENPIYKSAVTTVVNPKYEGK
UniProt P17301, 30-1181 limits assumed: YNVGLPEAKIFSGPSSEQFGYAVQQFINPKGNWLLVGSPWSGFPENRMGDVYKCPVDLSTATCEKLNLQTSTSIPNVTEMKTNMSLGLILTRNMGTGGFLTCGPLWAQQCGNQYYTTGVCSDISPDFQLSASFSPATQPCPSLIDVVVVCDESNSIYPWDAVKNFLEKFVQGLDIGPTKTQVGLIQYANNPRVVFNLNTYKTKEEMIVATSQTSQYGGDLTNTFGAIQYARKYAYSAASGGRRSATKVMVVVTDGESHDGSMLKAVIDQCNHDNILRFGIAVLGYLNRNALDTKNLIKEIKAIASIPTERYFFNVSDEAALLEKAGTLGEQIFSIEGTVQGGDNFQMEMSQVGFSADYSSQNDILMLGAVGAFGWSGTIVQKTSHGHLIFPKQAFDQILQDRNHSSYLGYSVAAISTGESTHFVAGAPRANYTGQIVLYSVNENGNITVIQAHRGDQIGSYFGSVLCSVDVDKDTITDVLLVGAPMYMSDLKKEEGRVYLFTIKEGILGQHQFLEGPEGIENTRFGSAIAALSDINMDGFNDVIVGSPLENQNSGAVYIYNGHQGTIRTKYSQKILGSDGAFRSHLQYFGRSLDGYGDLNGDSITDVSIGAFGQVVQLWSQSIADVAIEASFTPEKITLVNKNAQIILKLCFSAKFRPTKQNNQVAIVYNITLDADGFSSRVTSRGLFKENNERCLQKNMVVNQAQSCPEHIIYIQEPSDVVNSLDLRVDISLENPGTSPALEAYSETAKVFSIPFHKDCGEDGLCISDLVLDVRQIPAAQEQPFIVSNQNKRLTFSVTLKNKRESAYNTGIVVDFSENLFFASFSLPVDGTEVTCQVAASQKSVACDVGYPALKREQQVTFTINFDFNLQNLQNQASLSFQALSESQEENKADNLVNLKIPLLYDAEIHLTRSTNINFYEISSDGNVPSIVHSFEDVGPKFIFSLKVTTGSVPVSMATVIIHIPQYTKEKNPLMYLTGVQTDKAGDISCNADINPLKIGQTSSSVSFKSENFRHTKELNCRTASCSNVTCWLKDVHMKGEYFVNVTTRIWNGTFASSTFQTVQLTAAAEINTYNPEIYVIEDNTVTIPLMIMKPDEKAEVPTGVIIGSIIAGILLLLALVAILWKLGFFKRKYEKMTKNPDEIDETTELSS
UniProt P30273, 19-86 partner limits assumed: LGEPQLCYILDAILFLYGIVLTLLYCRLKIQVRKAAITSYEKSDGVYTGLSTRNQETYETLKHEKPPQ
UniProt P13224, 26-206 partner limits assumed: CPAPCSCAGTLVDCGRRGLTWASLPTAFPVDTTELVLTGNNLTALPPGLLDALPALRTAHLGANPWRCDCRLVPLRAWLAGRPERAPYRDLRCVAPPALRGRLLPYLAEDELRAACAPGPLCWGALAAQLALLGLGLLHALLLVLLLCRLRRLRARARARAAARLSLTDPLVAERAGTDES
UniProt P14770, 17-177 partner limits assumed: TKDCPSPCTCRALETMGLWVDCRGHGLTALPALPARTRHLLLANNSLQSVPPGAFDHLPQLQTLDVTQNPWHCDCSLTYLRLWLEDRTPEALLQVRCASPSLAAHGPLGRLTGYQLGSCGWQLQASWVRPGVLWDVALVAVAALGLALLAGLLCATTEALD

Columns and labels:
GPIb = GPIb (Homo sapiens, UniProt P07359); assay: Flow cytometry, binding of anti-GPIb mAb to platelets; conditions: CVX C-terminal, various concentrations, 30 min
GPVI = GPVI (Homo sapiens, UniProt Q9HCN6); assay: Flow cytometry, binding of anti-GPVI mAb to platelets; conditions: CVX C-terminal, various concentrations, 30 min
washed platelets [1] = assay: Ristocetin-induced platelet activation/agglutination; type: cell-based, human; conditions: 50 μg/ml; data not shown
α2β1 integrin = α2β1 integrin (Homo sapiens, UniProt P05556+P17301); assay: Flow cytometry, binding of anti-α2β1 integrin mAb to platelets; conditions: CVX C-terminal, various concentrations, 30 min
washed platelets [2] = assay: Collagen-induced aggregation of washed platelets; type: cell-based, human; conditions: peptide at 100 μg/ml, preincubated 37° C. 3 min; collagen 2 μg/ml

| Substance | Binding of mAb against GPIb, AP1, to platelets (GPIb) | Binding of anti-GPVI Ab 6B12 to platelets (GPVI) | Inhibitory effect on ristocetin-induced platelet activation (washed platelets [1]) | Binding of anti-integrin α2β1 mAb MAB1998 to platelets (α2β1 integrin) | Inhibition of the collagen-induced aggregation (%) (washed platelets [2]) |
| --- | --- | --- | --- | --- | --- |
| CSLLKKETGFRKWFVASCIGKIPFVCKFPPQC | not affected | significantly inhibited | about 20% | not affected |  |
| EEFECLISRTFDNQWLSAPCSDTYSFVCKFEA | not affected | significantly inhibited | about 20% | not affected |  |
| RKWFVA |  |  |  |  | 28.66 ± 5.10 |
